Measurements taken from patent US20240386992A1.

target: wt; assay: ELISA

P2C-1F11 and REGN10933 are within 1.5-fold of each other in EC50: 0.35 µg/mL for the first, 0.33 µg/mL for the second.

Going from REGN10987 to S309, the EC50 rises from 0.42 µg/mL to 0.64 µg/mL (1.5-fold).
